Taken from: PubChem BioAssay AID1259414 (Drosophila RNAi Screening Center, 2018)
The screen tested about 24,000 reagents; below is a random part of those that have a named target and a result. In the full data, about 1,210 (5%) were called active. 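Inactive calls also include excluded dsRNAs with several or no targets, genes unexpressed in JW18, and well A1, regardless of score.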 No sequences are given here.

- Assay: 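Genome-wide screen for host control of endosymbiont load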 (primary screen)
- System: Drosophila JW18 cells infected with Wolbachia
- Reagent: long dsRNA against Drosophila genes, 0.25 µg dsRNA per well of a 384-well plate
- Timing: 5 days
- Challenge: cells persistently infected with Wolbachia before knock-down; no added drug
- Measurement: 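Automated imaging of bacterial rRNA staining divided by host cell count, reported as plate-normalised robust z-score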
- Direction: Wolbachia per cell robust z: higher = more Wolbachia per host cell than the plate typical
- Hit rule: 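Hit when robust z is 1.5 or more, or -1.5 or less, in at least two of three replicates; excludes dsRNAs with several or no targets, genes not expressed in JW18 and well A1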

Gene	DRSC id	Wolbachia per cell robust z, rep 1	Wolbachia per cell robust z, rep 2	Wolbachia per cell robust z, rep 3	activity call
ppk3 (pickpocket 3)	DRSC04275	1.62	0.409	0.574	inactive
ppk3 (pickpocket 3)	DRSC25960	-1.17	-0.462	0.411	inactive
CG15332	DRSC18015	-0.0507	0.514	0.81	inactive
CG15332	DRSC25660	0.0969	-0.579	-0.00442	inactive
CG1317	DRSC08305	-1.25	0.254	-1.21	inactive
Sec31 (Secretory 31)	DRSC07131	-0.372	0.565	1.19	inactive
Sec31 (Secretory 31)	DRSC27091	0.212	0.684	0.308	inactive
CG2006	DRSC15412	-0.979	-0.716	0.151	inactive
eater	DRSC15969	0.089	-0.712	-0.65	inactive
eater	DRSC22254	-0.131	-0.0762	0.0769	inactive
eater	DRSC29945	-2.81	0.185	1.26	inactive
Orct2 (Organic cation transporter 2)	DRSC14613	-0.827	-2.42	0.137	inactive
Orct2 (Organic cation transporter 2)	DRSC24714	-1.04	-1.54	-1.74	active
CG13643	DRSC14641	0.522	-2.21	0.873	inactive
CG13643	DRSC14642	0.274	-2.42	-1.99	active
CG13643	DRSC28349	-0.786	-1.56	-0.661	inactive
CG7382	DRSC03052	-0.111	0.691	0.792	inactive
CG7382	DRSC27512	-0.943	0.152	-0.49	inactive
Ir94g (Ionotropic receptor 94g)	DRSC15231	-3.75	-0.8	-5.12	inactive
Ir94g (Ionotropic receptor 94g)	DRSC27794	-0.0523	0.0254	0.894	inactive
Hcs (Holocarboxylase synthetase)	DRSC12070	-3	-0.864	-1.23	inactive
Hcs (Holocarboxylase synthetase)	DRSC12256	-4.98	0.979	0.807	inactive
CG34323	DRSC38796	2.69	-2.65	1.11	inactive
CG32548	DRSC19627	0.229	0.597	1.11	inactive
CG32548	DRSC19982	0.114	-3.75	-0.0103	inactive
CG32548	DRSC28857	-0.547	-0.094	-0.305	inactive
CG30491	DRSC21472	0.673	-0.868	1.14	inactive
CG30491	DRSC25369	-1.16	-0.468	-0.5	inactive

Only “Wolbachia per cell robust z, rep 1” (2 entries from above):
eater [DRSC29945]	-2.81
Orct2 (Organic cation transporter 2) [DRSC14613]	-0.827
